Results of unrelated studies side by side (data: NIAID ChemDB).

Common to all: whole-cell or culture tests; agent: HIV-1; read by: RT activity; endpoint: inhibition

Blank or dashed fields: not listed here. Percent inhibition refers to the dose given; in toxicity tests it is the harm to the cells. Neighbouring rows are from separate reports.

{"SMILES": "Nc1ccn([C@H]2C=C[C@@H](CO)O2)c(=O)n1", "strain": "LAV", "cells": "MT-2", "dose": "0.01 µM", "value": "61%"}
{"SMILES": "O=C(C(=O)N1CCN(C(=O)c2cccc(Cl)c2F)CC1)c1c[nH]c2ccccc12", "strain": "BRU", "cells": "MT-2", "dose": "10 µM", "value": "91.2%"}
{"SMILES": "N#Cc1csc(NC(=O)NCCc2ccccc2)n1", "cells": "MT-4", "dose": "10 µg/mL", "value": "98%"}
{"SMILES": "CCN(CC)CCCC(C)Nc1ccnc2cc(Cl)ccc12", "cells": "U-937", "dose": "100 µM", "value": "66.12%"}
{"SMILES": "COc1ccc2c(C(=O)C(=O)N3CCN(C(=O)c4ccccc4)CC3)c[nH]c2c1", "strain": "BRU", "cells": "MT-2", "dose": "10 µM", "value": "96.4%"}
{"SMILES": "CCCCCCCCCCCCCCCCOP(=O)(OC[C@H]1OC(O)[C@@H](O)[C@@H](O)[C@@H]1O)OC[C@H]1O[C@@H](n2cc(C)c(=O)[nH]c2=O)C[C@@H]1N=[N+]=[N-]", "conditions": "7 d", "strain": "LAV-Bru", "cells": "U-937", "dose": "0.2 µM", "value": "0%"}
{"SMILES": "Cc1nc(NC(=O)NCCc2ccccc2)sc1C", "cells": "MT-4", "dose": "10 µg/mL", "value": "91%"}
{"SMILES": "O=c1ccn(C2C[C@H](CO)[C@@H](CO)C2)c(=O)[nH]1", "strain": "IIIB", "cells": "H9", "dose": "10 µg/mL", "value": "23%"}
{"SMILES": "CC(C)(C)NC(=O)[C@@H]1CCCN1C(=O)[C@@H](O)[C@H](Cc1ccccc1)NC(=O)[C@H](CC(N)=O)NC(=O)OCc1ccccc1", "strain": "pNL432", "cells": "MOLT-4", "dose": "5 µM", "value": "60%"}
{"SMILES": "Nc1ccn(C2C[C@H](CO)[C@@H](CO)C2)c(=O)n1", "strain": "IIIB", "cells": "H9", "dose": "10 µg/mL", "value": "39%"}
{"SMILES": "O=C(NCCc1ccccc1)Nc1nc2c(Cl)cccc2s1", "cells": "MT-4", "dose": "10 µg/mL", "value": "8%"}
{"SMILES": "C[C@H]1[C@H](O)[C@@H](C)/C=C/C=C/C=C/C=C/C=C/C=C/C=C/[C@H](O[C@@H]2O[C@H](C)[C@@H](O)[C@H](N)[C@@H]2O)C[C@@H]2O[C@](O)(C[C@@H](O)C[C@@H](O)CC[C@H](O)[C@@H](O)C[C@@H](O)CC(=O)O[C@H]1C)C[C@H](O)[C@H]2C(=O)O", "strain": "NL4-3 WT", "cells": "PBL", "dose": "10 µM", "value": "90%"}
{"SMILES": "O=C(NCCc1ccccc1)Nc1nc2ccc(F)cc2s1", "cells": "MT-4", "dose": "10 µg/mL", "value": "16%"}
{"SMILES": "CC(=O)Oc1ccccc1C(=O)N1CCN(C(=O)C(=O)c2c[nH]c3ccccc23)CC1", "strain": "BRU", "cells": "MT-2", "dose": "10 µM", "value": "65.4%"}
{"SMILES": "COc1c(C)c2c(c(O)c1C/C=C(\\C)CCC(=O)O)C(=O)OC2", "strain": "SF162", "cells": "Macrophage + Monocytes/macrophages", "dose": "10 µM", "value": "95%"}
{"SMILES": "O=C(NCCc1ccccc1)Nc1nc2ccc(Cl)cc2s1", "cells": "MT-4", "dose": "1 µg/mL", "value": "1%"}
{"SMILES": "O=C(C(=O)N1CCN(C(=O)c2ccccc2)CC1)c1c[nH]c2ccc(Cl)cc12", "strain": "BRU", "cells": "MT-2", "dose": "10 µM", "value": "95.8%"}
{"SMILES": "CCN(CC)C(=S)S", "strain": "LAV", "cells": "H9", "dose": "0.0000025 µg/mL", "value": "21%"}
{"SMILES": "CCCCCCCCCCCCCCCCOP(=O)(OCCO[C@@H]1O[C@H](CO)[C@@H](O)[C@H](O)[C@@H]1O)OC[C@H]1O[C@@H](n2cc(C)c(=O)[nH]c2=O)C[C@@H]1N=[N+]=[N-]", "conditions": "14 d", "strain": "LAV-Bru", "cells": "U-937", "dose": "0.2 µM", "value": "0%"}
{"SMILES": "O=C(C(=O)N1CCN(C(=O)c2cccc(Br)c2)CC1)c1c[nH]c2ccccc12", "strain": "BRU", "cells": "MT-2", "dose": "10 µM", "value": "88.4%"}
{"SMILES": "CC(C)[C@H](NC(=O)[C@H](Cc1ccccc1)C[C@H](O)[C@H](Cc1ccccc1)NC(=O)OC(C)(C)C)C(=O)N[C@@H](Cc1ccccc1)C(=O)N1CCOCC1", "strain": "LAV", "cells": "PBL", "dose": "0.1 µM", "value": "95%"}
{"SMILES": "Cc1cn([C@H]2C[C@H](N=[N+]=[N-])[C@@H](COP(=O)(O)OCCO[C@H]3O[C@H](CO)[C@@H](O)[C@H](O)[C@@H]3O)O2)c(=O)[nH]c1=O", "conditions": "15 d", "strain": "LAV-Bru", "cells": "CEM", "dose": "0.2 µM", "value": "86%"}
{"SMILES": "Cc1ccc2[nH]cc(C(=O)C(=O)N3CCN(C(=O)c4ccccc4)CC3)c2c1", "strain": "BRU", "cells": "MT-2", "dose": "10 µM", "value": "49.5%"}
{"SMILES": "COc1cc(N=Nc2cc(S(=O)(=O)O)cc3cc(S(=O)(=O)O)cc(O)c23)c(C)cc1NC(=O)Nc1cc(C)c(N=Nc2cc(S(=O)(=O)O)cc3cc(S(=O)(=O)O)cc(O)c23)cc1OC", "strain": "LAV-BR", "cells": "PBL", "dose": "100 µM", "value": "97%"}
{"SMILES": "CCCCCCCCCCCCCC(=O)NCC(N)=O", "strain": "IIIB", "cells": "H9", "dose": "10 µg/mL", "value": "82%"}
{"SMILES": "Cc1[nH]c2ccccc2c1C(=O)C(=O)N1CCN(C(=O)c2ccccc2)CC1", "strain": "BRU", "cells": "MT-2", "dose": "10 µM", "value": "54.9%"}

The last 3 rows once more:

SMILES	conditions	strain	cells	dose	value
COc1cc(N=Nc2cc(S(=O)(=O)O)cc3cc(S(=O)(=O)O)cc(O)c23)c(C)cc1NC(=O)Nc1cc(C)c(N=Nc2cc(S(=O)(=O)O)cc3cc(S(=O)(=O)O)cc(O)c23)cc1OC	-	LAV-BR	PBL	100 µM	97%
CCCCCCCCCCCCCC(=O)NCC(N)=O	-	IIIB	H9	10 µg/mL	82%
Cc1[nH]c2ccccc2c1C(=O)C(=O)N1CCN(C(=O)c2ccccc2)CC1	-	BRU	MT-2	10 µM	54.9%